A mixed list of measured activities; the numbers were collected in NIAID ChemDB.

All rows: cytotoxicity tests; cells: MT-4; method: MTT; measure: CC50

Rows are shuffled and stem from different studies. CCn: concentration that lowers growth or viability of the cells by n%.

| compound | value |
|---|---|
| C#CCOCn1c(Cc2ccccc2)c(CF)c(=O)[nH]c1=O | >100 µM |
| COc1ccc(S(=O)(=O)Nc2nnc(C(CC(C)C)NS(=O)(=O)c3ccc(C)cc3)s2)cc1 | 61.05 µM |
| CCC(C)OC(=O)c1cccn1S(=O)(=O)c1cc(Cl)ccc1N | 71.3 µM |
| Cc1ccnc2c1NC(=O)c1cccnc1N2C1CC1 | >15.02 µM |
| Cn1c(=O)cc(Oc2nc(Nc3ccc(C#N)cc3)nc(Oc3cc(=O)n(C)c4ccccc34)n2)c2ccccc21 | 79.48 µg/mL |
| N#Cc1cc(Cl)cc(Oc2c(C(F)(F)F)ccn(CC(=O)Nc3cccnc3)c2=O)c1 | 111 µM |
| CCOP(=O)(OCC)C(Cc1ccccn1)N[C@@H](Cc1ccccc1)[C@H](O)CN(CC(C)C)S(=O)(=O)c1ccc(OC)cc1 | 13.93 µg/mL |
| O=C(O)CN(CCN(CC(=O)O)Cc1cnc2c(O)cccc2c1)CC(=O)O | >50 µM |
| N#Cc1ccc(-c2csc(N/N=C/c3ccncc3)n2)cc1 | 53.1 µM |
| O=C1CC2CCC1C1C(=O)N(CCCN3CCN(c4ccccc4)CC3)C(=O)C21 | >100 µM |
| O=C(NNCCO)c1[nH]c2ccc(Cl)cc2c1Sc1ccccc1 | 70 µM |
| O=c1ccn(C23C=C[C@@H](CO)[C@@H]2C3)c(=O)[nH]1 | >100 µg/mL |
| Cc1ccc(S(=O)(=O)c2c(C(=O)NCCO)[nH]c3ccc(Cl)cc23)c(C)c1 | >100 µM |
| Cc1cn([C@H]2C[C@H](N=[N+]=[N-])[C@@H](CO)O2)c(=O)[nH]c1=O | >25 µM |
| Nc1ccn([C@@H]2OC[C@@H](CO)[C@H]2O)c(=O)n1 | >100 µM |
| CCOP(=O)(OCC)C(Cc1ccccc1)N[C@@H](Cc1ccccc1)[C@H](O)CN(CC(C)C)S(=O)(=O)c1ccc(OC)cc1 | 13.25 µg/mL |
| O=C(Cc1cn([C@H]2C=C[C@@H](CO)O2)c(=O)[nH]c1=O)NCCCCCCCCNC(=O)c1c2ccccc2nc2ccccc12 | >10 µM |
| Cc1cc(C#N)cc(C)c1Oc1nc(Nc2ccc(NS(C)(=O)=O)cc2)nc2ccsc12 | >268.4 µM |
| Cc1cn([C@H]2C[C@H](N=[N+]=[N-])[C@@H](CO)O2)c(=O)[nH]c1=O | >1 µM |
| CC(C)CC(NS(=O)(=O)c1ccc(Cl)cc1)c1nnc(NS(=O)(=O)c2ccc(Cl)cc2)s1 | 59.93 µM |
| C=C(c1ccccc1)c1c(CC)c(=O)[nH]c(=O)n1COC/C=C/c1ccccc1 | 29 µM |
| COc1cc(/C=C/c2nc(NC(=O)Nc3ccc(C)cc3)c3ccccc3n2)cc(OC)c1OC | 2.75 µg/mL |
| Cc1cc(C#N)cc(C)c1Oc1ccnc(Nc2ccc(CN3CCC(NS(C)(=O)=O)CC3)cc2)n1 | 18.1 µM |
| Cn1c(=O)cc(Oc2nc(Nc3ccc(C#N)cc3)nc(Sc3nnc(-c4ccncc4)o3)n2)c2ccccc21 | 68.75 µg/mL |
| Cc1cn([C@H]2C[C@H](N=[N+]=[N-])[C@@H](CO)O2)c(=O)[nH]c1=O | >187 µM |
| O=c1[nH]c(=O)n([C@H]2C=C[C@@H](CO)O2)cc1CCO | >100 µM |
| Cc1ccccc1Sc1c(C(=O)NCCO)[nH]c2ccc(Cl)cc12 | >100 µM |
| N#Cc1cc(Cl)cc(Oc2c(C(F)(F)F)ccn(CC(=O)Nc3ccncc3)c2=O)c1 | 133 µM |
| CC(C)CC(NS(=O)(=O)c1ccc(Cl)cc1)c1nnc(NS(=O)(=O)c2ccc(Br)cc2)s1 | 57.63 µM |
| O=C1CC2CCC1C1C(=O)N(CC(O)CN3CCCCC3)C(=O)C21 | >100 µM |
| NC(=O)c1cccn1S(=O)(=O)c1ccccc1[N+](=O)[O-] | >200 µM |
| C=CCOCn1c(C(=C)c2ccccc2)c(CC)c(=O)[nH]c1=O | >100 µM |
| CC(=O)c1ccc(S(=O)(=O)N2CCC(Nc3nc(Oc4c(C)cc(C#N)cc4C)c4sccc4n3)CC2)cc1 | 21.98 µM |
| C=C(c1cc(C)cc(C)c1)c1c(CC)c(=O)[nH]c(=O)n1COCC#Cc1ccccc1 | 31 µM |
| Cc1cn([C@H]2C[C@H](N=[N+]=[N-])[C@@H](COP(=O)(O)CO)O2)c(=O)[nH]c1=O | >500 µM |
| Cc1cc(C)c(Oc2nc(N)nc(Nc3ccc(CN4CCOCC4)cc3)n2)c(C)c1 | ≥12.89 µM |
| Cn1c(Cn2ccc(C(F)(F)F)c(Oc3cc(Cl)cc(C#N)c3)c2=O)nn(COP(=O)(O)O)c1=O | >234 µM |
| COc1ccccc1NC(=S)Nc1nc(/C=C/c2cc(OC)c(OC)c(OC)c2)nc2ccccc12 | 3.42 µg/mL |
| N#Cc1cccn1S(=O)(=O)c1cc(Cl)ccc1[N+](=O)[O-] | 1.4 µM |
| Cn1c(=O)cc(Oc2nc(Nc3ccc(C#N)cc3)nc(Oc3cc(=O)oc4ccccc34)n2)c2ccccc21 | 69.2 µg/mL |
| COc1cc(/C=C/c2nc(NC(=S)Nc3ccccc3)c3ccccc3n2)cc(OC)c1OC | 5.66 µg/mL |
| O=C1CC2CCC1C1C(=O)N(CCCCN3CCN(c4ncccn4)CC3)C(=O)C21 | >100 µM |
| C=C(C)COCn1c(Cc2ccccc2)c(CF)c(=O)[nH]c1=O | >100 µM |
| COC(=O)[C@H](C)NP(=O)(OC[C@@H]1C=C[C@H](n2cc(CC(=O)NCCCCCCCCNC(=O)C(F)(F)F)c(=O)[nH]c2=O)O1)Oc1ccccc1 | 1 µM |
| Cc1cc(C#N)cc(C)c1Oc1nc(NC2CCN(S(C)(=O)=O)CC2)nc2ccsc12 | 22.21 µM |
| CCOCn1c(Cc2ccccc2)c(C(C)C)c(=O)[nH]c1=O | >100 µM |
| CC(C)(C)NCC(O)CN1C(=O)C2C3CCC(C(=O)C3)C2C1=O | >100 µM |
| CCOCn1c(Cc2cc(OC)cc(OC)c2)c(C(C)C)c(=O)[nH]c1=O | >100 µM |
| C=CCOCn1c(Cc2ccccc2)c(CF)c(=O)[nH]c1=O | >100 µM |
| Cc1ccc(Sc2c(C(=O)NNCCO)[nH]c3ccc(Cl)cc23)c(C)c1 | 66 µM |
| COc1ccccc1N1CCN(CC(O)CN2C(=O)C3C4CCC(C(=O)C4)C3C2=O)CC1 | >100 µM |
| C=C(c1cc(C)cc(C)c1)c1c(CC)c(=O)[nH]c(=O)n1COC/C=C/c1ccccc1 | 4 µM |
| O=C1CC2CCC1C1C(=O)N(CCCCN3CCN(c4ccccc4O)CC3)C(=O)C21 | >100 µM |
| Cc1cc(C#N)cc(C)c1Oc1ccnc(Nc2ccc(CN3CCOCC3)cc2)n1 | 23 µM |
| CN(C)CC(O)CN1C(=O)C2C3CCC(C(=O)C3)C2C1=O | >100 µM |
| COc1cc(/C=C/c2nc(NC(=O)Nc3ccc(Cl)cc3)c3ccccc3n2)cc(OC)c1OC | 4.97 µg/mL |
| COc1cc(/C(C)=N/Nc2nc(-c3ccc(Cl)cc3)cs2)cc(OC)c1OC | 16.39 µM |
| C=CCOCn1c(C(=C)c2cc(C)cc(C)c2)c(CC)c(=O)[nH]c1=O | 36 µM |
| Cc1cc(C#N)cc(C)c1Oc1ccnc(Nc2ccc(CN3CCC(NS(N)(=O)=O)CC3)cc2)n1 | 3.72 µM |
| N#Cc1cc(Cl)cc(Oc2c(C(F)(F)F)ccn(CC(=O)Nc3ccc(Br)cc3)c2=O)c1 | 87.9 µM |
| Cc1c(C[N+](=O)[O-])c(=O)oc2c3c(ccc12)OC(C)(C)[C@H](OC(=O)C12CCC(C)(C(=O)O1)C2(C)C)[C@@H]3OC(=O)C12CCC(C)(C(=O)O1)C2(C)C | >71.94 µM |
| C=C(c1ccccc1)c1c(CC)c(=O)[nH]c(=O)n1COCC#Cc1ccccc1 | 28 µM |
| CCc1c(Cc2cc(OC)cc(OC)c2)[nH]c(=S)[nH]c1=O | >100 µM |
| O=C(NCCO)c1[nH]c2ccc(Cl)cc2c1Sc1ccccc1 | >100 µM |
| O=C1CC2CCC1C1C(=O)N(CC(O)CN3CCN(c4ccccn4)CC3)C(=O)C21 | >100 µM |
| CS(=O)(=O)c1ccc(NC(=O)Cn2ccc(C(F)(F)F)c(Oc3cc(Cl)cc(C#N)c3)c2=O)cc1 | 112 µM |
| Cc1ccc(Sc2c(C(=O)NCCO)[nH]c3ccc(Cl)cc23)cc1 | >100 µM |
| CCc1c(Cc2cc(C)cc(C)c2)n(Cc2ccc(I)cc2)c(=O)[nH]c1=O | 43 µM |
| COCP(=O)(O)OC[C@H]1O[C@@H](n2cc(C)c(=O)[nH]c2=O)C[C@@H]1N=[N+]=[N-] | >500 µM |
| Cc1cc(C)cc(S(=O)(=O)c2c(C(=O)NCCO)[nH]c3ccc(Cl)cc23)c1 | 85 µM |
| N#Cc1cc(Cl)cc(Oc2c(C(F)(F)F)ccn(CC(=O)Nc3ccc(F)cc3)c2=O)c1 | 112 µM |
| COc1cc2c(c3oc(=O)c(COC(C)=O)c(C)c13)[C@@H](OC(=O)C13CCC(C)(C(=O)O1)C3(C)C)[C@@H](OC(=O)C13CCC(C)(C(=O)O1)C3(C)C)C(C)(C)O2 | >67.75 µM |
| COc1cc(Cc2[nH]c(=O)[nH]c(=O)c2C(C)C)cc(OC)c1 | >100 µM |
| CCOC(=O)c1ccn(S(=O)(=O)c2cc(Cl)ccc2[N+](=O)[O-])c1 | 0.7 µM |
| Cc1c(CC#N)c(=O)oc2c3c(ccc12)OC(C)(C)[C@H](OC(=O)C12CCC(C)(C(=O)O1)C2(C)C)[C@@H]3OC(=O)C12CCC(C)(C(=O)O1)C2(C)C | >74.07 µM |
| N#Cc1ccc(-c2csc(N/N=C/c3ccco3)n2)cc1 | 10.04 µM |
| Cc1cc(C#N)cc(C)c1Oc1nc(Nc2ccc(NS(=O)(=O)c3ccc(-c4ccccc4)cc3)cc2)nc2ccsc12 | >207 µM |
| COc1ccccc1N1CCN(CCCCN2C(=O)C3C4CCC(C(=O)C4)C3C2=O)CC1 | >100 µM |
| COc1ccc2nc(Nc3nc(Nc4ccc(C#N)cc4)nc(Oc4cc(=O)n(C)c5ccccc45)n3)sc2c1 | 72.13 µg/mL |
| N#Cc1ccc(-c2csc(N/N=C/c3ccccn3)n2)cc1 | 1.71 µM |
| COc1ccc(NC(=S)Nc2nc(/C=C/c3cc(OC)c(OC)c(OC)c3)nc3ccccc23)cc1 | 4.43 µg/mL |
| Cn1c(=O)cc(Oc2nc(Nc3ccc(C#N)cc3)nc(Nc3cnccn3)n2)c2ccccc21 | 83.58 µg/mL |

9 of the rows above, restated:

COc1ccccc1N1CCN(CC(O)CN2C(=O)C3C4CCC(C(=O)C4)C3C2=O)CC1 ; value: >100 µM
C#CCOCn1c(Cc2ccccc2)c(CF)c(=O)[nH]c1=O ; value: >100 µM
CC(C)(C)NCC(O)CN1C(=O)C2C3CCC(C(=O)C3)C2C1=O ; value: >100 µM
Cn1c(=O)cc(Oc2nc(Nc3ccc(C#N)cc3)nc(Oc3cc(=O)n(C)c4ccccc34)n2)c2ccccc21 ; value: 79.48 µg/mL
N#Cc1cc(Cl)cc(Oc2c(C(F)(F)F)ccn(CC(=O)Nc3ccc(Br)cc3)c2=O)c1 ; value: 87.9 µM
N#Cc1cc(Cl)cc(Oc2c(C(F)(F)F)ccn(CC(=O)Nc3ccc(F)cc3)c2=O)c1 ; value: 112 µM
O=C1CC2CCC1C1C(=O)N(CCCCN3CCN(c4ncccn4)CC3)C(=O)C21 ; value: >100 µM
COc1cc(Cc2[nH]c(=O)[nH]c(=O)c2C(C)C)cc(OC)c1 ; value: >100 µM
CC(C)CC(NS(=O)(=O)c1ccc(Cl)cc1)c1nnc(NS(=O)(=O)c2ccc(Cl)cc2)s1 ; value: 59.93 µM